From PubChem BioAssay AID1527 (The Scripps Research Institute Molecular Screening Center, 2009)
The list shows a part of the results, in another mix than the full data. Calls of active or inactive are those of the source.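 How the source made its calls: active means inhibition above the mean of all tested compounds plus 3 SD, cutoff set per screening run (cut at about 7.5% in these data); inactive means the rest.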

Test system: VIM-2 metallo-beta-lactamase (Pseudomonas aeruginosa)
Assay: VIM-2 metallo-beta-lactamase inhibitors, primary screen, biochemical, epi-absorbance readout, Pseudomonas aeruginosa enzyme (AID 1527);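 further: red hydrolysis product quenches plate fluorescence so inhibitors raise well fluorescence; 0% = enzyme with DMSO and 100% = DMSO without enzyme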
Settings: purified VIM-2, nitrocefin hydrolysis, epi-absorbance fluorescence; at 5.6 µM; stronger effect = higher value

`CCOC(=O)N1CCC(Nc2ccc(C)cc2)CC1` was tested. Which inhibition did it give?
Its inhibition is inactive: -2.28%.

For `N/C(=N\O)c1c(N)no[n+]1[O-]`, which inhibition is on record?
The inhibition was inactive: -4.15%.

`O=C(OC1CN2CCC1CC2)C1c2ccccc2C=Cc2ccccc21` (centres undefined) was tested. Which inhibition did it give?
The inhibition was inactive: -2.12%.

How did the inhibition turn out when `COc1ccc(C(=O)NCC2(N3CCOCC3)CCCCC2)cc1OC` was run?
Its inhibition is inactive: -0.7%.

`CN(C)C1(CNC(=O)c2cccc(C#N)c2)CCCCC1` was tested. Which inhibition did it give?
The inhibition was inactive: 0.33%.

For `c1ccc(CN2CCC(Nc3ccccc3)CC2)cc1`, which inhibition is on record?
Its inhibition is inactive: -0.53%.

With `CCCN1CCC(Nc2cc(OC)cc(OC)c2)CC1` as the molecule, how does the inhibition read?
Its inhibition is inactive: 0.16%.

Which inhibition does the source give for `N#Cc1ccc(C(=O)NCC2(N3CCCCC3)CCCCC2)cc1` here?
The inhibition was inactive: -1.52%.

With `CC(C)(C)OC(=O)N1CCC(N(C(=O)c2ccccc2)c2ccc(Cl)cc2)CC1` as the molecule, how does the inhibition read?
Its inhibition is inactive: -4.6%.

With `CCN1CCC(Nc2cccc(F)c2)CC1` as the molecule, how does the inhibition read?
The inhibition was inactive: -2.03%.

For `CN(C)c1ccc(C(=O)NCC2(N3CCCCC3)CCCCC2)cc1`, which inhibition is on record?
The inhibition was inactive: -1.14%.

How did the inhibition turn out when `COc1cc(OC)cc(C(=O)NCC2(N3CCCCC3)CCCCC2)c1` was run?
Its inhibition is inactive: -3.25%.

How did the inhibition turn out when `COc1cccc(C(=O)N(c2cc(C)cc(C)c2)C2CCN(C(=O)OC(C)(C)C)CC2)c1` was run?
Its inhibition is inactive: 0.44%.

With `COc1cc(OC)cc(C(=O)NCC2(N3CCOCC3)CCCCC2)c1` as the molecule, how does the inhibition read?
Its inhibition is inactive: 0.91%.

With `CCC(CO)(C(=O)OC1CN2CCC1CC2)c1ccccc1` (centres undefined) as the molecule, how does the inhibition read?
The inhibition was inactive: 0.03%.

For `CN1CCC(Nc2ccc(Cl)cc2)CC1`, which inhibition is on record?
Its inhibition is inactive: -1.91%.

For `CCCOc1ccc(C)cc1CN(CCCl)CCCl`, which inhibition is on record?
Its inhibition is inactive: -2.3%.

How did the inhibition turn out when `CCOc1ncccc1C(=O)NCC1(N2CCOCC2)CCCCC1` was run?
Its inhibition is inactive: -1.37%.

Which inhibition does the source give for `CN1CCC(Nc2ccc(F)c(Cl)c2)CC1` here?
Its inhibition is inactive: -0.99%.

Which inhibition does the source give for `CC(C)(C)OC(=O)N1CCC(Nc2ccccc2)CC1` here?
The inhibition was inactive: -2.15%.

How did the inhibition turn out when `O=C(O)C1(Nc2ccccc2)CCN(Cc2ccccc2)CC1` was run?
Its inhibition is inactive: -0.21%.

With `CCCOc1ccc(C(=O)NCC2(N(C)C)CCCCC2)cc1` as the molecule, how does the inhibition read?
The inhibition was inactive: -1.85%.

Which inhibition does the source give for `Cc1cc(C)cc(N(C(=O)c2ccccc2)C2CCN(C(=O)OC(C)(C)C)CC2)c1` here?
The inhibition was inactive: -5.15%.

How did the inhibition turn out when `O=C(NCC1(N2CCOCC2)CCCCC1)c1cc2ccccc2o1` was run?
The inhibition was inactive: -5.51%.

Which inhibition does the source give for `O=C(OC1CN2CCC1CC2)C1c2ccccc2Oc2ccccc21` (centres undefined) here?
Its inhibition is inactive: -0.49%.

Which inhibition does the source give for `N#CC1(Nc2ccccc2)CCN(Cc2ccccc2)CC1` here?
Its inhibition is inactive: -2.69%.

For `CCOC(=O)N1CCC(Nc2ccc(OC)cc2)CC1`, which inhibition is on record?
Its inhibition is inactive: -0.82%.

For `COc1ccc(C(=O)NCC2(N3CCCCC3)CCCCC2)cc1`, which inhibition is on record?
The inhibition was inactive: -2.27%.

Which inhibition does the source give for `CC(C)(C)OC(=O)N1CCC(N(C(=O)c2ccccc2)c2ccc(F)cc2)CC1` here?
The inhibition was inactive: 0.91%.

For `COc1ccc(C(=O)NCC2(N3CCCCC3)CCCCC2)c(OC)c1OC`, which inhibition is on record?
The inhibition was inactive: -0.28%.

How did the inhibition turn out when `O=C(NCC1(N2CCCCC2)CCCCC1)c1ccc(=O)[nH]c1` was run?
The inhibition was inactive: -0.02%.

How did the inhibition turn out when `CSc1ccccc1C(=O)NCC1(N2CCCCC2)CCCCC1` was run?
Its inhibition is inactive: -1.41%.

For `COc1cc(C(=O)NCC2(N(C)C)CCCCC2)ccc1OC(F)F`, which inhibition is on record?
The inhibition was inactive: -2.99%.

With `CCOC(=O)N1CCC(Nc2cccc(C)c2)CC1` as the molecule, how does the inhibition read?
The inhibition was inactive: 0.07%.

How did the inhibition turn out when `Cc1ccc(OCC(C)C)c(CN(CCCl)CCCl)c1` was run?
Its inhibition is inactive: -2.36%.

`CCOc1ccc(C)cc1CN(CCCl)CCCl` was tested. Which inhibition did it give?
Its inhibition is inactive: 0.55%.

Which inhibition does the source give for `O=C(NCC1(N2CCCCC2)CCCCC1)c1ccc(F)cc1` here?
The inhibition was inactive: -1.28%.

`CCOC(=O)N1CCC(Nc2ccc(F)cc2)CC1` was tested. Which inhibition did it give?
The inhibition was inactive: -1.29%.

With `COc1ccc(NC2CCN(CCc3ccccc3)CC2)c(OC)c1` as the molecule, how does the inhibition read?
Its inhibition is inactive: -3.21%.

Which inhibition does the source give for `O=C(NCC1(N2CCCCC2)CCCCC1)c1cccc(C(F)(F)F)c1` here?
The inhibition was inactive: -3.07%.

For `O=C(NCC1(N2CCOCC2)CCCCC1)c1cc(=O)[nH]c2ccccc12`, which inhibition is on record?
Its inhibition is inactive: 0.11%.

For `COc1cc(C(=O)NCC2(N3CCCCC3)CCCCC2)ccc1OC(F)F`, which inhibition is on record?
The inhibition was inactive: -0.91%.

How did the inhibition turn out when `COc1ccc(NC2CCN(C(=O)OC(C)(C)C)CC2)cc1` was run?
Its inhibition is inactive: 1.76%.

With `CN1CCN(CCOC(=O)C(O)(c2ccccc2)c2ccccc2)CC1` as the molecule, how does the inhibition read?
The inhibition was inactive: -1.33%.

Which inhibition does the source give for `O=C(NCC1(N2CCCCC2)CCCCC1)c1ccc(OC(F)F)cc1` here?
Its inhibition is inactive: -0.79%.

For `CCN1CCC(Nc2ccc(Cl)cc2)CC1`, which inhibition is on record?
Its inhibition is inactive: -1.18%.

With `N#CC1(Nc2ccccc2)CCN(CCc2ccccc2)CC1` as the molecule, how does the inhibition read?
The inhibition was inactive: -1.85%.

How did the inhibition turn out when `O=C(NCC1(N2CCCCC2)CCCCC1)c1cccc([N+](=O)[O-])c1` was run?
Its inhibition is inactive: -2.38%.

`CN1CCC(Nc2cccc(F)c2)CC1` was tested. Which inhibition did it give?
Its inhibition is inactive: -4.97%.

`CCCOc1ccc(C(=O)NCC2(N(C)C)CCCCC2)cc1OC` was tested. Which inhibition did it give?
Its inhibition is inactive: -5.64%.

`CC(C)c1ccc(NC2CCN(C(=O)OC(C)(C)C)CC2)cc1` was tested. Which inhibition did it give?
Its inhibition is inactive: -0.84%.

For `COc1ccc(CN(CCCl)CCCl)cc1Cl`, which inhibition is on record?
Its inhibition is inactive: -0.17%.

For `CN(C)c1cccc(C(=O)NCC2(N3CCCCC3)CCCCC2)c1`, which inhibition is on record?
The inhibition was inactive: 1.56%.

For `COc1cc(OC)c(C(=O)NCC2(N(C)C)CCCCC2)cc1OC`, which inhibition is on record?
Its inhibition is inactive: -0.54%.
